The subject of experiment [1] is P. falciparum 3D7. In words: SYBR Green I-based fluorescence in vitro growth inhibition assay. The class given is cell-based, Plasmodium falciparum. The following applies: selectivity index, ratio between IC50 (3D7) and CC50 (HFF).
The test system of experiment [2] is P. falciparum K1. The description is as above. The class given is cell-based, Plasmodium falciparum. Conditions: selectivity index, ratio between IC50 (K1) and CC50 (HFF).

Regarding `CCN(CC)CCCC(C)Nc1ccnc2cc(Cl)ccc12` (centres unmarked) [Chloroquine, Chloroquine diphosphate, reference compound], the “SI for P. falciparum 3D7” value in experiment [1] stood at 790.46. Also, the “SI for P. falciparum K1” value in experiment [2] is 27.98.

Source of the values: publication PMC8954220, “Sparsomycin Exhibits Potent Antiplasmodial Activity In Vitro and In Vivo” (Pharmaceutics, 2022).
